This note sets out measurements from PubChem BioAssay AID602139 (NMMLSC, 2011).

Usually inhibition stands for the drop in the measured response relative to a control, in per cent.

For this assay, the system named is Botulinum neurotoxin type A light chain protease (Clostridium botulinum A str. ATCC 3502). Briefly: inhibition of botulinum toxin A LC protease – biochemical, flow cytometry, cherry pick 1, confirmation (AID 602139). The following applies: multiplex microsphere protease assay, at 10 µM, stronger effect = higher value.

Structures are written as SMILES. The list shows a part of the results, in another mix than the full data. Active and inactive are the calls of the source. No stated cut-off is given here; in the data, active means inhibition above about 32%; inactive means the rest.

As to `CN1CCC(Nc2ccc(F)c(Cl)c2)CC1`, the inhibition was inactive: -1.4%.
